Anti-infective test results gathered from many reports (values: NIAID ChemDB through PubChem).

Shared fields: whole-cell or culture tests; organism: Mycobacterium tuberculosis

MIC50, MIC90 and the like: level of inhibition, or share of isolates inhibited.

| smiles | strain or isolate | measure | read by | dose | result |
|---|---|---|---|---|---|
| COc1cccc(C(=O)O/N=C(\C)c2ccccn2)c1OC | Clinical isolate | MIC | resazurin | - | 8 µg/mL |
| CO[C@H]1/C=C/O[C@@]2(C)Oc3c(C)c(O)c4c(O)c(c(/C=N/N5CCN(C)CC5)c(O)c4c3C2=O)NC(=O)/C(C)=C\C=C\[C@H](C)[C@H](O)[C@@H](C)[C@@H](O)[C@@H](C)[C@H](OC(C)=O)[C@@H]1C | ATCC 27294 | MIC50 | - | - | 0.1 µM |
| CNC(=S)N=Nc1c(O)n(C)c2ccc(C)cc12 | H37Rv | EC50 | broth dilution / resazurin | - | >100 µg/mL |
| CCCCCCCCOc1ccccc1NC(=O)OCCN1CCCCC1 | My 331/88 | MIC | - | - | 16 µM |
| c1ccc(-c2c(C(c3ccccc3)n3ccnc3)cnn2-c2ccccc2)cc1 | ATCC 35828 (pyrazinamide-resistant) | MIC50 | - | - | 30 µM |
| CCCCCCCOc1ccc(NC(=O)OCC[NH+]2CCCC2)cc1 | My 331/88 | MIC | - | - | 32 µM |
| NC[C@H]1O[C@H](O[C@H]2[C@H](O)[C@@H](O[C@H]3O[C@H](CO)[C@@H](O)[C@H](N)[C@H]3O)[C@H](N)C[C@@H]2N)[C@H](O)[C@@H](O)[C@@H]1O | H37Rv | Mean MIC | - | - | 2.19 µg/mL |
| CC(=O)OCc1cc(=O)n(C)c2c3c4c(cc12)c(C)cc(=O)n4CO3 | RMP-R | MIC | - | - | 1.6 µg/mL |
| O=C1c2ccccc2-c2nc3ccccc3n21 | Clinical isolate | MIC | resazurin | - | 4 µg/mL |
| NNC(=O)c1ccncc1 | Isolate 7 | MIC | - | - | 4 µg/mL |
| COc1ccc(OCC(=O)Nc2nonc2-c2ccc(OC)c(OC)c2)cc1 | 18b | MIC | resazurin | - | 8 µg/mL |
| CCN(CC)CCNc1ccc(C)c2oc3ccc(O)cc3c(=O)c12 | ETA-R | MIC | - | - | 12.5 µg/mL |
| CN[C@@H]1[C@H](O[C@H]2[C@H](O[C@H]3[C@H](O)[C@@H](O)[C@H](N=C(N)N)[C@@H](O)[C@@H]3N=C(N)N)O[C@@H](C)[C@]2(O)C=O)O[C@@H](CO)[C@H](O)[C@H]1O | Isolate 11 | MIC | - | - | 64 µg/mL |
| CC(=O)NNc1ccc([N+](=O)[O-])cn1 | H37Rv | MIC bound | BACTEC | - | >12.5 µg/mL |
| NNC(=O)c1ccncc1 | H37Rv | Mean MIC | - | - | 0.044 µg/mL |
| Cn1nc(NC(=O)c2cc(NC(=O)Nc3cc(C(=O)Nc4cc(C(=O)Nc5ccc6cc(S(=O)(=O)O)cc(S(=O)(=O)O)c6c5)n(C)n4)n(C)n3)nn2C)cc1C(=O)Nc1ccc2cc(S(=O)(=O)O)cc(S(=O)(=O)O)c2c1 | H37Rv | inhibition | BACTEC | 12.5 µg/mL | 9% |
| Cc1ccc2c(c1)c(N=NC(=S)NC1CCCCC1)c(O)n2C | H37Rv | EC90 | broth dilution / resazurin | - | >100 µg/mL |
| Cc1occc1-c1nnc(SCC(=O)N(C)c2ccc(F)cc2)o1 | 18b | MIC | resazurin | - | 16 µg/mL |
| COCCNC(=O)c1cnccn1 | H37Rv | MIC | BACTEC | - | ≥12.5 µg/mL |
| CN(C)c1ccc(O)c2c1C[C@H]1C[C@H]3[C@H](N(C)C)C(=O)C(C(N)=O)=C(O)[C@@]3(O)C(=O)C1=C2O | H37Rv | Median MIC | - | - | 4 µg/mL |
| CN[C@@H]1[C@H](O[C@H]2[C@H](O[C@H]3[C@H](O)[C@@H](O)[C@H](N=C(N)N)[C@@H](O)[C@@H]3N=C(N)N)O[C@@H](C)[C@]2(O)C=O)O[C@@H](CO)[C@H](O)[C@H]1O | ATCC 27294 | MIC50 | - | - | 0.01 µM |
| CCOc1ccccc1NC(=O)OCC[NH+]1CCCC1 | My 331/88 | MIC | - | - | >1000 µM |
| CN1CC2(Cc3ccccc3)c3ccccc3NC2(NC(=O)C(=O)NC23Nc4ccccc4C2(Cc2ccccc2)CN(C)C3=O)C1=O | H37Rv | MIC | BACTEC | - | ≥12.8 µg/mL |
| CC(=O)O[C@H]1C[C@@]2(C)[C@@H](C[C@@H](O)[C@H]3[C@@]4(C)CC[C@@H](O)[C@@H](C)[C@@H]4CC[C@@]32C)/C1=C(\CCC=C(C)C)C(=O)O | H37Rv | Mean MIC | - | - | 8 µg/mL |
| Clc1ccc(-c2c(C(c3ccccc3)n3ccnc3)cnn2-c2ccc(Cl)cc2)cc1 | ATCC 35828 (pyrazinamide-resistant) | MIC90 | - | - | ≥100 µM |
| Cn1c(O)c(N=NC(=S)Nc2ccc([N+](=O)[O-])cc2)c2cc(OC(F)(F)F)ccc21 | H37Rv | EC50 | broth dilution / resazurin | - | >100 µg/mL |
| Clc1ccccc1-c1c(C(c2ccccc2)n2ccnc2)cnn1-c1ccccc1 | ATCC 35822 (isoniazid-resistant) | MIC90 | - | - | 87.4 µM |
| OC[C@@H](O)[C@H]1NC[C@H](O)[C@@H]1O | H37Rv | inhibition | resazurin | 6.25 µg/mL | 3% |
| C[C@H]1COc2c(N3CCN(C)CC3)c(F)cc3c(=O)c(C(=O)O)cn1c23 | 4R | MIC | - | - | 0.5 µg/mL |
| CCC[C@@H]1C[C@@H](C(=O)N[C@@H]([C@H]2O[C@H](SC)[C@H](O)[C@@H](O)[C@H]2O)[C@@H](C)O)N(C)C1 | H37Rv | Median MIC | - | - | >256 µg/mL |
| COC(=O)C(/C(=N/NC(N)=O)C(=O)Nc1c(C)cccc1C(C)(C)C)c1nc2ccc(Cl)cc2[nH]c1=O | H37Rv | inhibition | resazurin | 6.25 µg/mL | -8% |
| CCCCCCOc1cccc(NC(=O)OCCN2CCCCC2)c1 | My 331/88 | MIC | - | - | 16 µM |
| COc1ccc2cc3n(c(=O)c2c1OC)CCc1cc2c(cc1-3)OCO2 | H37Rv | inhibition | BACTEC | 12.5 µg/mL | 8% |
| CC[C@H]1OC(=O)[C@H](C)[C@@H](O[C@H]2C[C@@](C)(OC)[C@@H](O)[C@H](C)O2)[C@H](C)[C@@H](O[C@@H]2O[C@H](C)C[C@H](N(C)C)[C@H]2O)[C@](C)(OC)C[C@@H](C)C(=O)[C@H](C)[C@@H](O)[C@]1(C)O | Isolate 2225 | MIC | - | - | >4 µg/mL |
| CC(/C=C/c1ccco1)=N\NC(=O)c1ccncc1 | H37Rv | MIC | BACTEC | - | 0.2 µg/mL |
| O=S(=O)(c1ccc(Cl)cc1)c1cnc2ccccc2c1N1CCCC1 | Clinical isolate | MIC | resazurin | - | 8 µg/mL |
| Cc1cc(N(C)C)nc2cc(N)ccc12 | H37Rv | MIC bound | BACTEC | - | ≤12.5 µg/mL |
| CC[C@@H](CO)NCCN[C@@H](CC)CO | Isolate 9 | MIC | - | - | 16 µg/mL |
| Cc1ccc(C(=O)CSc2cc(C)[o+]c(C)c2)cc1.[Br-] | H37Rv | MIC | BACTEC | - | >12.5 µg/mL |
| CNC(=S)N=Nc1c(O)[nH]c2ccc(C)cc12 | H37Rv | EC90 | broth dilution / resazurin | - | >100 µg/mL |
| NNC(=O)c1ccncc1 | Isolate S0 | MIC | - | - | 0.031 µg/mL |
| CCCCCCCCOc1cccc(NC(=O)OCCN(C)C)c1 | My 331/88 | MIC | - | - | 4 µM |
| CC(=O)NC(=O)NC1C(OC(C)=O)C(OC(C)=O)C(COC(C)=O)OC1n1ccc(NC(C)=O)nc1=O | H37Rv | inhibition | BACTEC | 12.5 µg/mL | 0% |
| Cc1ccc(NC(=S)N=Nc2c(O)[nH]c3ccc(OC(F)(F)F)cc23)cc1 | H37Rv | EC90 | broth dilution / resazurin | - | >100 µg/mL |
| CO[C@H]1/C=C/O[C@@]2(C)Oc3c(C)c(O)c4c(O)c(c(/C=N/N5CCN(C)CC5)c(O)c4c3C2=O)NC(=O)/C(C)=C\C=C\[C@H](C)[C@H](O)[C@@H](C)[C@@H](O)[C@@H](C)[C@H](OC(C)=O)[C@@H]1C | 3S | MIC | - | - | 1 µg/mL |
| Cc1ccc2[nH]c(O)c(N=NC(=S)NCc3ccccc3)c2c1 | H37Rv | EC50 | broth dilution / resazurin | - | 14.9 µg/mL |
| CCCCCCCCOc1ccccc1NC(=O)OCCN(C)C | My 331/88 | MIC | - | - | 8 µM |
| CC[C@H]1OC(=O)[C@H](C)[C@@H](O[C@H]2C[C@@](C)(OC)[C@@H](O)[C@H](C)O2)[C@H](C)[C@@H](O[C@@H]2O[C@H](C)C[C@H](N(C)C)[C@H]2O)[C@](C)(OC)C[C@@H](C)C(=O)[C@H](C)[C@@H](O)[C@]1(C)O | S-3M (susceptible) | MIC | - | - | >8 µg/mL |
| CO[C@H]1/C=C/O[C@@]2(C)Oc3c(C)c(O)c4c(O)c(c5c(c4c3C2=O)NC2(CCN(CC(C)C)CC2)N=5)=NC(=O)/C(C)=C\C=C\[C@H](C)[C@H](O)[C@@H](C)[C@@H](O)[C@@H](C)[C@H](OC(C)=O)[C@@H]1C | 2227 (rifampicin-resistant) | MIC | - | - | 0.25 µg/mL |
| C[C@@H]1CN(c2c(F)c(N)c3c(=O)c(C(=O)O)cn(C4CC4)c3c2F)C[C@H](C)N1 | MDR-1 (MDR) | MIC | - | - | 0.2 µg/mL |
| NCC[C@H](O)C(=O)N[C@@H]1C[C@H](N)[C@@H](O[C@H]2O[C@H](CN)[C@@H](O)[C@H](O)[C@H]2O)[C@H](O)[C@H]1O[C@H]1O[C@H](CO)[C@@H](O)[C@H](N)[C@H]1O | H37Ra | Mean MIC | - | - | 0.6 µg/mL |
| O=C(O)c1cc2ccc3c(c2oc1=O)CN(c1ccc(Cl)cc1)CO3 | Clinical isolate | MIC | resazurin | - | 16 µg/mL |
| CN1c2ccccc2CCC1CCc1ccc2c(c1)OCO2 | MT10 | MIC | - | - | >100 µg/mL |
| COC(=O)Cn1ccc2ccc(S(=O)(=O)N3CCCCC3)cc21 | 18b | MIC | resazurin | - | 4 µg/mL |
| Fc1ccc(-n2ncc(C(c3ccccc3)n3ccnc3)c2-c2ccccc2)cc1 | ATCC 35828 (pyrazinamide-resistant) | MIC90 | - | - | ≥100 µM |
| CC(=O)NC[C@H]1CN(c2ccc(N3CCN(c4ccc([N+](=O)[O-])s4)CC3)c(F)c2)C(=O)O1 | PC 4782 | MIC | - | - | 0.125 µg/mL |
| COC(=O)c1cc(C)n(-c2ccc(C)cc2)c1C | H37Rv | inhibition | BACTEC | 6.25 µg/mL | 0% |
| Cc1ccc2c(c1)c(N=NC(=S)Nc1ccc(Br)cc1)c(O)n2C | H37Rv | EC50 | broth dilution / resazurin | - | >100 µg/mL |
| CCOc1ccc(NC(=O)OCCN2CCOCC2)cc1 | My 331/88 | MIC | - | - | >1000 µM |
| CCc1cc(C(N)=S)ccn1 | 1620-6 | MIC | - | - | 1.25 µg/mL |
| CCN(CC)c1ccc(N=C2C=CC(=O)C(NC(C)=O)=C2)c(C)c1 | H37Rv | MIC | BACTEC | - | 6.25 µg/mL |
| Clc1ccc(-c2c(C(c3ccccc3)n3ccnc3)cnn2-c2ccccc2)cc1 | ATCC 35837 (ethambutol-resistant) | MIC50 | - | - | ≥100 µM |
| Cc1ccc2c(c1)c(N=NC(=S)Nc1ccc(Cl)cc1)c(O)n2C | H37Rv | EC90 | broth dilution / resazurin | - | >100 µg/mL |
| Nc1ccc(C(=O)O)c(O)c1 | H37Ra | Median MIC | - | - | 2 µg/mL |
| CNC1=CC(=O)c2c(c3cc(O)ccc3n2C)C1=O | H37Rv | inhibition | resazurin | 6.25 µg/mL | 47% |
| CO[C@H]1/C=C/O[C@@]2(C)Oc3c(C)c(O)c4c(O)c(c5c(c4c3C2=O)NC2(CCN(CC(C)C)CC2)N=5)=NC(=O)/C(C)=C\C=C\[C@H](C)[C@H](O)[C@@H](C)[C@@H](O)[C@@H](C)[C@H](OC(C)=O)[C@@H]1C | H37Ra | Mean MIC | - | - | ≤0.003 µg/mL |
| O=C(O)CSc1nc2cc(Cl)c(Cl)cc2[nH]1 | - | MIC bound | resazurin | - | >6.25 µg/mL |
| COc1ccc(CCC2CCc3ccccc3N2C)cc1OC | MT10 | MIC | - | - | >100 µg/mL |
| COC1OC2COC(c3ccccc3)OC2C2OC(=S)OC12 | H37Rv | inhibition | BACTEC | 12.5 µg/mL | 0% |
| COc1ccccc1NC(=O)OCCN1CCCCC1 | My 331/88 | MIC | - | - | >1000 µM |
| CC=O.NC(N)=NCCCC(N)C(=O)N1CCCC1C(=O)N1CCCC1C(=O)NC(CCCN=C(N)N)C(=O)O | H37Rv | inhibition | BACTEC | 12.5 µg/mL | -9% |
| Fc1ccccc1-c1c(C(c2ccccc2)n2ccnc2)cnn1-c1ccccc1 | ATCC 35820 (streptomycin-resistant) | MIC90 | - | - | ≥100 µM |
| Cc1ccc(S(=O)(=O)Nc2ccc(C(=O)NC(CCC(=O)O)C(=O)O)cc2)cc1 | H37Rv | MIC bound | BACTEC | - | >12.5 µg/mL |
| NNC(=O)c1ccncc1 | ATCC 35828 (pyrazinamide-resistant) | MIC50 | - | - | 0.1 µM |

A second listing of 6 rows from above:

smiles	strain or isolate	measure	read by	dose	result
CN[C@@H]1[C@H](O[C@H]2[C@H](O[C@H]3[C@H](O)[C@@H](O)[C@H](N=C(N)N)[C@@H](O)[C@@H]3N=C(N)N)O[C@@H](C)[C@]2(O)C=O)O[C@@H](CO)[C@H](O)[C@H]1O	Isolate 11	MIC	-	-	64 µg/mL
Cc1ccc(NC(=S)N=Nc2c(O)[nH]c3ccc(OC(F)(F)F)cc23)cc1	H37Rv	EC90	broth dilution / resazurin	-	>100 µg/mL
CC(=O)NNc1ccc([N+](=O)[O-])cn1	H37Rv	MIC bound	BACTEC	-	>12.5 µg/mL
CCOc1ccc(NC(=O)OCCN2CCOCC2)cc1	My 331/88	MIC	-	-	>1000 µM
Cc1ccc2c(c1)c(N=NC(=S)Nc1ccc(Cl)cc1)c(O)n2C	H37Rv	EC90	broth dilution / resazurin	-	>100 µg/mL
CCc1cc(C(N)=S)ccn1	1620-6	MIC	-	-	1.25 µg/mL

Blank or dashed fields: not listed here. ECn: concentration that inhibits the pathogen or its effect by n%. Percent inhibition refers to the dose given; in toxicity tests it is the harm to the cells. MIC bound comes from a single tested concentration. Lines come from different laboratories, so protocols vary.